Measured values taken from US20050255083.

Test system: wild-type anthrax toxin protective antigen (PrAg)

In the case of urokinase plasminogen activator (uPA), the “in vitro cleavage (SDS-PAGE, Western blot)” value is reported as “Wild-type PrAg also showed a low degree of susceptibility to uPA”.
